A mixed list of measured activities; the numbers were collected in NIAID ChemDB.

Common to all: whole-cell or culture tests; organism: Rhinovirus

ECn: concentration that inhibits the pathogen or its effect by n%. Percent inhibition refers to the dose given; in toxicity tests it is the harm to the cells. Rows are shuffled and stem from different studies. Blank or dashed fields: not listed here.

Cc1ccc(Cn2cnc3c(N(C)C)nc(C(F)(F)F)nc32)cc1 ; measure: inhibition ; tested at: 8 µM ; method: plaque count ; cell line: M-HELA ; strain: Serotype 21 ; value: 40%
O=C(Nc1cc(S(=O)(=O)O)cc2cc(S(=O)(=O)O)cc(O)c12)c1ccccc1 ; measure: inhibition ; tested at: 50 µg/mL ; method: cytopathic effect ; cell line: Human embryonic lung cells ; value: 26%
CSc1nsc(-c2ccc(OCc3ccccc3)cc2)c1C#N ; measure: EC50 ; method: cytopathic effect ; cell line: HELA-OHIO ; strain: Serotype 70 (group A) ; value: 25 µM
CSc1nsc(-c2ccccc2)c1C#N ; measure: EC50 ; method: cytopathic effect ; cell line: HELA-OHIO ; strain: Serotype 63 (group B) ; value: >80 µM
CSc1nsc(-c2ccc(OCCCc3ccccc3)cc2)c1C#N ; measure: EC50 ; method: cytopathic effect ; cell line: HELA-OHIO ; strain: Serotype 14 (group A) ; value: >20 µM
CN(C)c1nc(C(F)(F)F)nc2c1ncn2Cc1ccc(Cl)cc1Cl ; measure: inhibition ; tested at: 8 µM ; method: plaque count ; cell line: M-HELA ; strain: Serotype 19 ; value: 40%
O=S(=O)([O-])c1cccc(O)c1 ; measure: inhibition ; tested at: 10 µg/mL ; method: cytopathic effect ; cell line: Human embryonic lung cells ; value: 0%
CSc1nsc(-c2ccc(OC(C)(C)C)cc2)c1C#N ; measure: EC50 ; method: cytopathic effect ; cell line: HELA-OHIO ; strain: Serotype 14 (group A) ; value: >40 µM
CN(C)c1ccc(Cn2cnc3c(N(C)C)nc(C(F)(F)F)nc32)cc1 ; measure: inhibition ; tested at: 8 µM ; method: plaque count ; cell line: M-HELA ; strain: Serotype 31 ; value: 41%
Cc1ccc(Cn2cnc3c(Nc4cccc(F)c4)nc(C(F)(F)F)nc32)cc1 ; measure: EC50 ; method: plaque count ; cell line: M-HELA ; strain: Serotype 1B ; value: 1.7 µM
O=C(O)c1cc(S(=O)(=O)[O-])ccc1O ; measure: inhibition ; tested at: 10 µg/mL ; method: cytopathic effect ; cell line: Human amnion AV3 cells ; value: 0%
CSc1nsc(-c2ccc(OCCCCOc3ccc(C#N)cc3)cc2)c1C#N ; measure: EC50 ; method: cytopathic effect ; cell line: HELA-OHIO ; strain: Serotype 2 (group B) ; value: >2 µM
Cc1cc(-c2ccc(N=Nc3c(S(=O)(=O)O)cc4cc(S(=O)(=O)O)cc(N)c4c3O)c(C)c2)ccc1N=Nc1c(S(=O)(=O)O)cc2cc(S(=O)(=O)O)cc(N)c2c1O ; measure: inhibition ; tested at: 5 µg/mL ; method: cytopathic effect ; cell line: Human embryonic lung cells ; value: 0%
CN(C)c1nc(C(F)(F)F)nc2c1ncn2Cc1cccc(F)c1 ; measure: inhibition ; tested at: 8 µM ; method: plaque count ; cell line: M-HELA ; strain: Serotype 5 ; value: 34%
CCOC(=O)/C=C/[C@H](C[C@@H]1CCNC1=O)NC(=O)[C@@H](CC(=O)[C@@H](NC(=O)c1cc(C)on1)C(C)C)Cc1ccc(F)cc1 ; measure: EC50 ; method: cytopathic effect / visual reading ; cell line: OHIO HELA-I ; strain: Isolate 14 ; value: 0.02 µg/mL
Cc1cc(CCCCCOc2c(Cl)cc(C3=NCCO3)cc2Cl)on1 ; measure: EC50 ; method: plaque count ; cell line: HeLa ; strain: TYPE A1 ; value: 0.98 µg/mL
CCOC(=O)c1ccc(OCCC2CCN(c3ccc(C)nn3)CC2)cc1 ; measure: EC50 ; method: neutral red ; cell line: KB ; strain: CH47 (ICAM-1 receptor group 57) ; value: 0.079 µM
CCOC(=O)c1ccc(OCCC2CCN(c3ccc(C)nn3)CC2)cc1 ; measure: EC50 ; method: cytopathic effect ; cell line: HELA-OHIO ; strain: Serotype 85 (group B) ; value: 0.005 µM
Fc1cccc(Cn2cnc3c(Nc4cccc(F)c4)nc(C(F)(F)F)nc32)c1 ; measure: EC50 ; method: plaque count ; cell line: M-HELA ; strain: Serotype 24 ; value: 1.9 µM
O=C1C(c2[nH]c3ccc(S(=O)(=O)O)cc3c2O)=Nc2ccc(S(=O)(=O)O)cc21 ; measure: inhibition ; tested at: 50 µg/mL ; method: cytopathic effect ; cell line: Human embryonic lung cells ; value: 0%
CSc1nsc(-c2ccc(OS(=O)(=O)c3ccc(C)cc3)cc2)c1C#N ; measure: EC50 ; method: cytopathic effect ; cell line: HELA-OHIO ; strain: Serotype 42 (group A) ; value: >25 µM

The first 2 rows once more:

compound,measure,tested at,method,cell line,strain,value
Cc1ccc(Cn2cnc3c(N(C)C)nc(C(F)(F)F)nc32)cc1,inhibition,8 µM,plaque count,M-HELA,Serotype 21,40%
O=C(Nc1cc(S(=O)(=O)O)cc2cc(S(=O)(=O)O)cc(O)c12)c1ccccc1,inhibition,50 µg/mL,cytopathic effect,Human embryonic lung cells,,26%